According to paper PMC9104152, “Phosphoproteomics Unravel HBV Triggered Rewiring of Host Phosphosignaling Events” (International Journal of Molecular Sciences, 2022):

B1: Q14498 1xPhospho [S136(100)] (protein, UniProt Q14498 2-530, looked up)
RNA-binding protein 39: ADDIDIEAMLEAPYKKDENKLSSANGHEERSKKRKKSKSRSRSHERKRSKSKERKRSRDRERKKSKSRERKRSRSKERRRSRSRSRDRRFRGRYRSPYSGPKFNSAIRGKIGLPHSIKLSRRRSRSKSPFRKDKSPVREPIDNLTPEERDARTVFCMQLAARIRPRDLEEFFSTVGKVRDVRMISDRNSRRSKGIAYVEFVDVSSVPLAIGLTGQRVLGVPIIVQASQAEKNRAAAMANNLQKGSAGPMRLYVGSLHFNITEDMLRGIFEPFGRIESIQLMMDSETGRSKGYGFITFSDSECAKKALEQLNGFELAGRPMKVGHVTERTDASSASSFLDSDELERTGIDLGTTGRLQLMARLAEGTGLQIPPAAQQALQMSGSLAFGAVAEFSFVIDLQTRLSQQTEASALAAAASVQPLATQCFQLSNMFNPQTEEEVGWDTEIKDDVIEECNKHGGVIHIYVDKNSAQGNVYVKCPSIAAAIAAVNALHGRWFAGKMITAAYVPLPTYHNLFPDSMTATQLLVPSRR
modifications: phosphorylated S136
B2: Q99856 1xPhospho [S101(100)] (protein, UniProt Q99856 1-593, looked up)
AT-rich interactive …: MKLQAVMETLLQRQQRARQELEARQQLPPDPPAAPPGRARAAPDEDREPESARMQRAQMAALAAMRAAAAGLGHPASPGGSEDGPPGSEEEDAAREGTPGSPGRGREGPGEEHFEDMASDEDMKPKWEEEEMEEDLGEDEEEEEEDYEDEEEEEDEEGLGPPGPASLGTTALFPRKAQPPQAFRGDGVPRVLGGQERPGPGPAHPGGAAHVAPQLQPPDHGDWTYEEQFKQLYELDGDPKRKEFLDDLFSFMQKRGTPVNRIPIMAKQVLDLFMLYVLVTEKGGLVEVINKKLWREITKGLNLPTSITSAAFTLRTQYMKYLYPYECEKRGLSNPNELQAAIDSNRREGRRQSFGGSLFAYSPGGAHGMLSSPKLPVSSLGLAASTNGSSITPAPKIKKEEDSAIPITVPGRLPVSLAGHPVVAAQAAAVQAAAAQAAVAAQAAALEQLREKLESAEPPEKKMALVADEQQRLMQRALQQNFLAMAAQLPMSIRINSQASESRQDSAVNLTGTNGSNSISMSVEINGIMYTGVLFAQPPAPTPTSAPNKGGGGGGGSSSNAGGRGGNTGTSGGQAGPAGLSTPSTSTSNNSLP
modifications: phosphorylated S101
B3: Q08999 1xPhospho [S1068(100)] (protein, UniProt Q08999 1-1139, looked up)
Retinoblastoma-like protein 2: MPSGGDQSPPPPPPPPAAAASDEEEEDDGEAEDAAPPAESPTPQIQQRFDELCSRLNMDEAARAEAWDSYRSMSESYTLEGNDLHWLACALYVACRKSVPTVSKGTVEGNYVSLTRILKCSEQSLIEFFNKMKKWEDMANLPPHFRERTERLERNFTVSAVIFKKYEPIFQDIFKYPQEEQPRQQRGRKQRRQPCTVSEIFHFCWVLFIYAKGNFPMISDDLVNSYHLLLCALDLVYGNALQCSNRKELVNPNFKGLSEDFHAKDSKPSSDPPCIIEKLCSLHDGLVLEAKGIKEHFWKPYIRKLYEKKLLKGKEENLTGFLEPGNFGESFKAINKAYEEYVLSVGNLDERIFLGEDAEEEIGTLSRCLNAGSGTETAERVQMKNILQQHFDKSKALRISTPLTGVRYIKENSPCVTPVSTATHSLSRLHTMLTGLRNAPSEKLEQILRTCSRDPTQAIANRLKEMFEIYSQHFQPDEDFSNCAKEIASKHFRFAEMLYYKVLESVIEQEQKRLGDMDLSGILEQDAFHRSLLACCLEVVTFSYKPPGNFPFITEIFDVPLYHFYKVIEVFIRAEDGLCREVVKHLNQIEEQILDHLAWKPESPLWEKIRDNENRVPTCEEVMPPQNLERADEICIAGSPLTPRRVTEVRADTGGLGRSITSPTTLYDRYSSPPASTTRRRLFVENDSPSDGGTPGRMPPQPLVNAVPVQNVSGETVSVTPVPGQTLVTMATATVTANNGQTVTIPVQGIANENGGITFFPVQVNVGGQAQAVTGSIQPLSAQALAGSLSSQQVTGTTLQVPGQVAIQQISPGGQQQKQGQSVTSSSNRPRKTSSLSLFFRKVYHLAAVRLRDLCAKLDISDELRKKIWTCFEFSIIQCPELMMDRHLDQLLMCAIYVMAKVTKEDKSFQNIMRCYRTQPQARSQVYRSVLIKGKRKRRNSGSSDSRSHQNSPTELNKDRTSRDSSPVMRSSSTLPVPQPSSAPPTPTRLTGANSDMEEEERGDLIQFYNNIYIKQIKTFAMKYSQANMDAPPLSPYPFVRTGSPRRIQLSQNHPVYISPHKNETMLSPREKIFYYFSNSPSKRLREINSMIRTGETPTKKRGILLEDGSESPAKRICPENHSALLRRLQDVANDRGSH
modifications: phospho S1068
B4: Q5VT52 1xPhospho [S1099(100)] (protein, UniProt Q5VT52 2-1461, looked up)
Regulation of nuclear …: AAGGGGGSSKASSSSASSAGALESSLDRKFQSVTNTMESIQGLSSWCIENKKHHSTIVYHWMKWLRRSAYPHRLNLFYLANDVIQNCKRKNAIIFRESFADVLPEAAALVKDPSVSKSVERIFKIWEDRNVYPEEMIVALREALSTTFKTQKQLKENLNKQPNKQWKKSQTSTNPKAALKSKIVAEFRSQALIEELLLYKRSEDQIELKEKQLSTMRVDVCSTETLKCLKDKTGGKKFSKEFEEASSKLEEFVNGLDKQVKNGPSLTEALENAGIFYEAQYKEVKVVANAYKTFANRVNNLKKKLDQLKSTLPDPEESPVPSPSMDAPSPTGSESPFQGMGGEESQSPTMESEKSATPEPVTDNRDVEDMELSDVEDDGSKIIVEDRKEKPAEKSAVSTSVPTKPTENISKASSCTPVPVTMTATPPLPKPVNTSLSPSPALALPNLANVDLAKISSILSSLTSVMKNTGVSPASRPSPGTPTSPSNLTSGLKTPAPATTTSHNPLANILSKVEITPESILSALSKTQTQSAPALQGLSSLLQSVTGNPVPASEAASQSTSASPANTTVSTIKGRNLPSSAQPFIPKSFNYSPNSSTSEVSSTSASKASIGQSPGLPSTTFKLPSNSLGFTATHNTSPAAPPTEVTICQSSEVSKPKLESESTSPSLEMKIHNFLKGNPGFSGLNLNIPILSSLGSSAPSESHPSDFQRGPTSTSIDNIDGTPVRDERSGTPTQDEMMDKPTSSSVDTMSLLSKIISPGSSTPSSTRSPPPGRDESYPRELSNSVSTYRPFGLGSESPYKQPSDGMERPSSLMDSSQEKFYPDTSFQEDEDYRDFEYSGPPPSAMMNLEKKPAKSILKSSKLSDTTEYQPILSSYSHRAQEFGVKSAFPPSVRALLDSSENCDRLSSSPGLFGAFSVRGNEPGSDRSPSPSKNDSFFTPDSNHNSLSQSTTGHLSLPQKQYPDSPHPVPHRSLFSPQNTLAAPTGHPPTSGVEKVLASTISTTSTIEFKNMLKNASRKPSDDKHFGQAPSKGTPSDGVSLSNLTQPSLTATDQQQQEEHYRIETRVSSSCLDLPDSTEEKGAPIETLGYHSASNRRMSGEPIQTVESIRVPGKGNRGHGREASRVGWFDLSTSGSSFDNGPSSASELASLGGGGSGGLTGFKTAPYKERAPQFQESVGSFRSNSFNSTFEHHLPPSPLEHGTPFQREPVGPSSAPPVPPKDHGGIFSRDAPTHLPSVDLSNPFTKEAALAHAAPPPPPGEHSGIPFPTPPPPPPPGEHSSSGGSGVPFSTPPPPPPPVDHSGVVPFPAPPLAEHGVAGAVAVFPKDHSSLLQGTLAEHFGVLPGPRDHGGPTQRDLNGPGLSRVRESLTLPSHSLEHLGPPHGGGGGGGSNSSSGPPLGPSHRDTISRSGIILRSPRPDFRPREPFLSRDPFHSLKRPRPPFARGPPFFAPKRPFFPPRY
modifications: phospho S1099
B5: O60216 1xPhospho [S545(100)] (protein, UniProt O60216 1-631, looked up)
Double-strand-break repair …: MFYAHFVLSKRGPLAKIWLAAHWDKKLTKAHVFECNLESSVESIISPKVKMALRTSGHLLLGVVRIYHRKAKYLLADCNEAFIKIKMAFRPGVVDLPEENREAAYNAITLPEEFHDFDQPLPDLDDIDVAQQFSLNQSRVEEITMREEVGNISILQENDFGDFGMDDREIMREGSAFEDDDMLVSTTTSNLLLESEQSTSNLNEKINHLEYEDQYKDDNFGEGNDGGILDDKLISNNDGGIFDDPPALSEAGVMLPEQPAHDDMDEDDNVSMGGPDSPDSVDPVEPMPTMTDQTTLVPNEEEAFALEPIDITVKETKAKRKRKLIVDSVKELDSKTIRAQLSDYSDIVTTLDLAPPTKKLMMWKETGGVEKLFSLPAQPLWNNRLLKLFTRCLTPLVPEDLRKRRKGGEADNLDEFLKEFENPEVPREDQQQQHQQRDVIDEPIIEEPSRLQESVMEASRTNIDESAMPPPPPQGVKRKAGQIDPEPVMPPQQVEQMEIPPVELPPEEPPNICQLIPELELLPEKEKEKEKEKEDDEEEEDEDASGGDQDQEERRWNKRTQQMLHGLQRALAKTGAESISLLELCRNTNRKQAAAKFYSFLVLKKQQAIELTQEEPYSDIIATPGPRFHII
modifications: phosphorylated S545
B6: Q9Y3B9 2xPhospho [S58(99.6); S67(100)] (protein, UniProt Q9Y3B9 2-282, looked up)
RRP15-like protein: AAAAPDSRVSEEENLKKTPKKKMKMVTGAVASVLEDEATDTSDSEGSCGSEKDHFYSDDDAIEADSEGDAEPCDKENENDGESSVGTNMGWADAMAKVLNKKTPESKPTILVKNKKLEKEKEKLKQERLEKIKQRDKRLEWEMMCRVKPDVVQDKETERNLQRIATRGVVQLFNAVQKHQKNVDEKVKEAGSSMRKRAKLISTVSKKDFISVLRGMDGSTNETASSRKKPKAKQTEVKSEEGPGWTILRDDFMMGASMKDWDKESDGPDDSRPESASDSDT
modifications: phosphorylated S58, S67
B7: P46060 2xPhospho [S442(100); S/T] (protein, UniProt P46060 2-587, looked up)
Ran GTPase-activating protein …: ASEDIAKLAETLAKTQVAGGQLSFKGKSLKLNTAEDAKDVIKEIEDFDSLEALRLEGNTVGVEAARVIAKALEKKSELKRCHWSDMFTGRLRTEIPPALISLGEGLITAGAQLVELDLSDNAFGPDGVQGFEALLKSSACFTLQELKLNNCGMGIGGGKILAAALTECHRKSSAQGKPLALKVFVAGRNRLENDGATALAEAFRVIGTLEEVHMPQNGINHPGITALAQAFAVNPLLRVINLNDNTFTEKGAVAMAETLKTLRQVEVINFGDCLVRSKGAVAIADAIRGGLPKLKELNLSFCEIKRDAALAVAEAMADKAELEKLDLNGNTLGEEGCEQLQEVLEGFNMAKVLASLSDDEDEEEEEEGEEEEEEAEEEEEEDEEEEEEEEEEEEEEPQQRGQGEKSATPSRKILDPNTGEPAPVLSSPPPADVSTFLAFPSPEKLLRLGPKSSVLIAQQTDTSDPEKVVSAFLKVSSVFKDEATVRMAVQDAVDALMQKAFNSSSFNSNTFLTRLLVHMGLLKSEDKVKAIANLYGPLMALNHMVQQDYFPKALAPLLLAFVTKPNSALESCSFARHSLLQTLYKV
modifications: diphosphorylated incl. S442
B8: P46060 1xPhospho [S/T] (protein, UniProt P46060 2-587, looked up)
Ran GTPase-activating protein …: B7 Ran GTPase-activating protein …
modifications: phosphorylated

What follows are molecules tested on HepG2-NTCP cells (assay: TMT-based phosphoproteome profiling of HBV-infected vs mock HepG2-NTCP (HBV/mock ratio)). Details: phosphosite abundance ratio of host protein, HBV-infected vs mock HepG2-NTCP, 7dpi, sheet Up-regulated.
Set-up: species or system human
B1 showed an HBV/mock of 1.371. B2 was tested, and the HBV/mock was 1.485. B3 showed an HBV/mock of 1.414. Molecule B4 has an HBV/mock of 1.372. B5 gave an HBV/mock of 1.372. With B6 the HBV/mock was 1.458. In the case of B7, the HBV/mock is reported as 1.521. In the case of B8, the HBV/mock is reported as 1.366.
